Experimental data as given in paper PMC11406233 (Proceedings of the National Academy of Sciences of the …, 2024).

Biological target: SARS-CoV-2 main protease with the A191T substitution (M^pro_(A191T)) (SARS-CoV-2)
Experiment: native MS

“SARS-CoV-2 main protease with the A191T substitution (M^pro_(A191T)) (enzyme)” gave a stoichiometry N of 2.
